Data from the supplement of paper PMC3578754.

Key:
Test in all cases: fold change of IC50 against reference virus; higher = more resistant
zalcitabine = compound: Nc1ccn([C@H]2CC[C@@H](CO)O2)c(=O)n1 [zalcitabine]
Experimental: (§1)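 Cell-culture drug susceptibility tests of virus bearing the reverse transcriptase of each isolate, gathered from many studies.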

zidovudine = compound: Cc1cn([C@H]2C[C@H](N=[N+]=[N-])[C@@H](CO)O2)c(=O)[nH]c1=O [zidovudine]
Experimental: as §1

tenofovir = compound: C[C@H](Cn1cnc2c(N)ncnc21)OCP(=O)(O)O [tenofovir]
Experimental: as §1

abacavir = compound: Nc1nc(NC2CC2)c2ncn([C@H]3C=C[C@@H](CO)C3)c2n1 [abacavir]
Experimental: as §1

nevirapine = compound: Cc1ccnc2c1NC(=O)c1cccnc1N2C1CC1 [nevirapine]
Experimental: as §1

efavirenz = compound: O=C1Nc2ccc(Cl)cc2[C@@](C#CC2CC2)(C(F)(F)F)O1 [efavirenz]
Experimental: as §1

didanosine = compound: O=c1[nH]cnc2c1ncn2[C@H]1CC[C@@H](CO)O1 [didanosine]
Experimental: as §1

stavudine = compound: Cc1cn([C@H]2C=C[C@@H](CO)O2)c(=O)[nH]c1=O [stavudine]
Experimental: as §1

delavirdine = compound: CC(C)Nc1cccnc1N1CCN(C(=O)c2cc3cc(NS(C)(=O)=O)ccc3[nH]2)CC1 [delavirdine]
Experimental: as §1

Test System | fold change of IC50 against reference virus (zalcitabine) | fold change of IC50 against reference virus (zidovudine) | fold change of IC50 against reference virus (tenofovir) | fold change of IC50 against reference virus (abacavir) | fold change of IC50 against reference virus (nevirapine) | fold change of IC50 against reference virus (efavirenz) | fold change of IC50 against reference virus (didanosine) | fold change of IC50 against reference virus (stavudine) | fold change of IC50 against reference virus (delavirdine)
HIV-1 isolate 33 (reverse transcriptase changes: A62V V75I F77L F116Y K122E Q151M F214L A272P K277R A376T A400T D460N S468T H483Y K512Q S519N, study 94) | 7.2 | 38.8 | 0.8 | – | – | – | – | – | –
HIV-1 isolate 41 (reverse transcriptase changes: R83K Q207E R211K T215Y T286A, study 100) | – | 15 | 1.4 | 1.5 | 0.6 | 0.5 | 0.9 | 1.4 | 0.5
HIV-1 isolate 96 (reverse transcriptase changes: V35T K49R K65R A98G K101E K122E A158S E169D V179D G190A R211A V245M, study 134) | – | 0.7 | 3.8 | 3.6 | 893 | 1500 | 3 | 1.9 | 5.9
HIV-1 isolate 107 (reverse transcriptase changes: V35T K49R K65R A98G K101E K122E A158S E169D Y181C G190A R211A V245M K277R T286A A288S E297A, study 15) | – | 0.6 | 3 | 3.9 | 893 | 1500 | 2.3 | 1.9 | 800
HIV-1 isolate 133 (reverse transcriptase changes: K102Q S162C K277R I293V R358K V435I S468P K550G, study 145) | – | 0.8 | 0.9 | 0.7 | 0.5 | 0.7 | 0.9 | 0.8 | 0.5
HIV-1 isolate 213 (reverse transcriptase changes: V35I D67N K70R R83K V90I D123E Y181C G196E R211K T215I K219E L228R V245M A272P K275R Q278H V292I I293V E297Q K311R, study 15) | – | 5.2 | 1 | 0.5 | 106 | 1 | 2 | 1.6 | 99
HIV-1 isolate 217 (reverse transcriptase changes: T69D K122E F214L A272P K277R A376T A400T D460N S468T H483Y K512Q S519N, study 94) | 4.2 | 0.1 | 3 | – | – | – | – | 4 | –
HIV-1 isolate 247 (reverse transcriptase changes: K122E Q145C F214L A272P K277R M357T A376T A400T N447S D460N S468T S519N, study 97) | – | 0.8 | 1 | 0.7 | 0.7 | 1.5 | 1 | 1.1 | –
HIV-1 isolate 376 (reverse transcriptase changes: S162C I178M M184I G196K R211K A272P Q278H K281R T286A T296S, study 15) | – | 0.3 | 0.5 | 1.6 | 0.6 | 0.6 | 1 | 0.9 | 1
HIV-1 isolate 456 (reverse transcriptase changes: V35T T39L K43N T69N K102Q K122E I142V S162C I178L T200E Q207E E224D V245L A272P I293V, study 15) | – | 0.6 | 0.8 | 1.2 | 0.7 | 0.5 | 1.1 | 1 | 0.5
HIV-1 isolate 460 (reverse transcriptase changes: E28A K64R K70R L74I V90I K102R K103N Y115F D123E S162A E169D M184V R199A D218E F227L T240A Y271P V276K C280R T290D V292I, study 15) | – | 0.7 | 0.6 | 10 | 200 | 200 | 1.9 | 0.8 | 200
HIV-1 isolate 487 (reverse transcriptase changes: K102Q S162C K277R, study 108) | – | 1 | 1 | 1 | 1 | 1 | 1 | 1 | 1
HIV-1 isolate 618 (reverse transcriptase changes: V21I S162C Q207E A272P K277R, study 100) | – | 0.5 | 1 | 0.7 | 0.4 | 0.4 | 0.9 | 1 | 0.5
HIV-1 isolate 676 (reverse transcriptase changes: K65R L100I K103N I244V V245M D250E A272P K281R T286A E297K, study 15) | – | – | 1.5 | 1.9 | 46 | 1500 | 1.5 | 1.1 | 800
HIV-1 isolate 681 (reverse transcriptase changes: K65N L100I K103N Y115F, study 92) | – | – | 2.6 | 7.4 | 118 | 294 | 1.5 | – | 177
HIV-1 isolate 728 (reverse transcriptase changes: V75I F77L K102Q F116Y Q151M S162C K277R, study 108) | – | 123 | 4 | 15 | 2 | 1 | 200 | 14.4 | 2

Test System | fold change of IC50 against reference virus (zalcitabine) | fold change of IC50 against reference virus (zidovudine) | fold change of IC50 against reference virus (tenofovir) | fold change of IC50 against reference virus (abacavir) | fold change of IC50 against reference virus (nevirapine) | fold change of IC50 against reference virus (efavirenz) | fold change of IC50 against reference virus (didanosine) | fold change of IC50 against reference virus (stavudine) | fold change of IC50 against reference virus (delavirdine)
HIV-1 isolate 731 (reverse transcriptase changes: K20R T69N K70R A98S K103N I142V V245K I293V, study 15) | – | 7.5 | 1.4 | 0.9 | 219 | 72 | 0.9 | 0.8 | ≥ 250
HIV-1 isolate 783 (reverse transcriptase changes: T39A K65R R83K K122E K166R D177E I178M M184V Q207K R211K D237E V245E, study 15) | – | 0.2 | 0.9 | 7.9 | 0.5 | 0.3 | 3.1 | 1 | 0.4
HIV-1 isolate 792 (reverse transcriptase changes: M41L V60I V118I D121Y K122E I135M M184V L210W T215Y V245R A272P, study 15) | – | 29 | 2.3 | 7.2 | 0.9 | 0.6 | 1.8 | 2.6 | 0.4
HIV-1 isolate 810 (reverse transcriptase changes: K122E Q145L F214L A272P K277R M357T A376T A400T N447S D460N S468T S519N, study 97) | – | 50 | 375 | 12 | 114 | 150 | 19.4 | 17.7 | –
HIV-1 isolate 904 (reverse transcriptase changes: M41L A62V T69D V75T K101E D123E I135T I142V Y181C G190A L210W R211K T215Y L228R A272S K277R K281R I293V E297K Q334E, study 15) | – | 86 | 2.6 | 4.2 | ≥ 400 | 245 | 2.1 | 3.3 | 27
HIV-1 isolate 940 (reverse transcriptase changes: K122E S162C K173Q, study 15) | – | 0.6 | 0.8 | 0.9 | 0.7 | 0.9 | 0.9 | 1 | 1.2
HIV-1 isolate 972 (reverse transcriptase changes: T39A S68G K103N D123E I135T D177E T200A R211K, study 15) | – | 1.5 | 0.9 | 0.9 | 196 | 73 | 1 | 1 | ≥ 250
HIV-1 isolate 1089 (reverse transcriptase changes: K65R A98S K122E I135T M184V G196E F214L V245Q I293V E297K, study 134) | – | 0.3 | 1.1 | 9.1 | 0.6 | 0.4 | 3 | 1.2 | 0.5
HIV-1 isolate 1105 (reverse transcriptase changes: P1L V35I S48T V60I D67N K70R D121H K122E K166R D177E G196E I202V T215F K219E, study 15) | – | 51 | 1.5 | 1.7 | 0.3 | 0.5 | 1.2 | 1.8 | 0.5
HIV-1 isolate 1233 (reverse transcriptase changes: K65R, study 75) | – | 0.4 | 1.7 | 2.3 | – | – | 1.6 | 1.6 | –
HIV-1 isolate 1347 (reverse transcriptase changes: K122E Q145M F214L A272P K277R M357T A376T A400T N447S D460N S468T S519N, study 97) | – | 50 | 2560 | 12 | 114 | 150 | 19.4 | 17.7 | –
HIV-1 isolate 1474 (reverse transcriptase changes: K102Q S162C K277R I293V R358K V435I S468P K550G, study 145) | – | 0.7 | 0.9 | 0.8 | 0.5 | 0.6 | 0.9 | 0.9 | 0.5
HIV-1 isolate 1478 (reverse transcriptase changes: K49R D67G K70E K103N T128A I135M M184V T200A E204D R211K K219R A272P V276I K281R T286A E297K, study 15) | – | 0.3 | 0.6 | 3 | 85 | 23 | 1.5 | 0.8 | 95
HIV-1 isolate 1493 (reverse transcriptase changes: K65N L100I K103N, study 92) | – | – | 1.7 | 2.1 | 47 | 294 | 1.4 | – | 177
HIV-1 isolate 1580 (reverse transcriptase changes: A98S K102Q G196E V245K I293V, study 15) | – | 1.1 | 0.9 | 1.1 | 1.7 | 1.3 | 1.1 | 0.9 | 1
HIV-1 isolate 1598 (reverse transcriptase changes: K122E Q145E F214L A272P K277R M357T A376T A400T N447S D460N S468T S519N, study 97) | – | 1.5 | 1 | 0.6 | 0.7 | 0.4 | 1 | 1.4 | –

Fold change is the IC50 on the isolate divided by the IC50 on a reference virus; 1 = unchanged, higher = more resistant. Changes are given against the subtype B consensus. No active / inactive call. The values were gathered from many studies (numbered anew) with different assays, which the source does not name. Most viruses are clinical isolates; some are laboratory strains or clones with known resistance changes. Isolates with mixed residues are left out; stretches that were not sequenced show no change. Round top values that many isolates share are read here as limits; other very high values and 0.1 may be limits too.
